In patent publication US8895604B2, “Solid forms of (1r,4r)-6′-fluoro-N,N-dimethy1-4-phenyl-4′,9′-dihydro-3′ H-spiro-[cyclohexane-1,1′-pyrano-[3,4,b]indol]-4-amine hydrochloride” (dated 2014):

Experiments:
[1] = Suspension equilibration experiments; settings: Ex. 3-1: H2O, 200 mg/2 mL, 7 days, RT, dried under vacuum
[2] = Mechanical stress from grinding with an agate mortar (PXRD); settings: grinded in an agate mortar for 10 min
[3] = Dynamic vapour sorption (DVS)
[4] = Solubility in water (saturated solutions, HPLC); settings: bidest H2O, saturated solution, 24 h equilibration time, RT
[5] = Hygroscopicity testing by storage at RT and 85% r.h.; settings: 24 h
[6] = Storage at high relative humidity with FT-Raman / TG-FTIR; settings: about 3 weeks at 97% r.h. at RT
[7] = Drying of solids from acid-base reaction experiments; settings: solid from water-containing experiments, dried

Substance	outcome (crystall. form) [1]	conversion of crystalline form upon grinding [2]	mass change Δm in DVS ([3]; two cycles, 50→0→95→50% r.h.) [%]	solubility [4] [µg/mL]	mass change Δm on storage [5] [%]	hygroscopicity class ([5]; classified according to European Pharmacopoeia)	water content reached by water uptake in DVS ([3]; 50→0→95→50% r.h. (2.5%/h), strong stepwise uptake)	conversion of crystalline form by DVS measurement ([3]; checked before and after repeated DVS by FT-Raman)	relative humidity at which loss of water was completed in DVS ([3]; on lowering the humidity, hysteresis)	water content after storage [6]	conversion of crystalline form upon drying [7]
(1r,4r)-6′-fluoro-N,N-dimethyl-4-phenyl-4′,9′-dihydro-3′H-spiro[cyclohexane-1,1′-pyrano[3,4,b]indol]-4-amine hydrochloride	did not convert to another form	does not convert to another form	< 0.2	1.21	0	not hygroscopic (not hygroscopic (nh): increase of the mass is less than 0.2%)	–	–	–	–	–
(1r,4r)-6′-fluoro-N,N-dimethyl-4-phenyl-4′,9′-dihydro-3′H-spiro[cyclohexane-1,1′-pyrano[3,4,b]indol]-4-amine hydrochloride [crystalline form B]	–	does not convert to another form	–	–	–	–	approx. 15.4%	No conversion	about 50 % r.h.	about 19%	–
(1r,4r)-6′-fluoro-N,N-dimethyl-4-phenyl-4′,9′-dihydro-3′H-spiro[cyclohexane-1,1′-pyrano[3,4,b]indol]-4-amine hydrochloride [crystalline form C]	–	–	–	–	–	–	–	–	–	–	converts to crystalline form A upon drying
